Results deposited as PubChem BioAssay AID624099 (ICCB-Longwood, 2012)
Assay: 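Knock-downs relieving repression by E2 of an HPV18 LCR luciferase reporter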 (primary screen). Cells: human C33A cervical carcinoma cells (HPV-negative) stably expressing BPV1 E2 and an HPV18 LCR luciferase reporter. Reagents: siRNA pool against human genes, 40 nM. Time to read-out: 72 h. Measurement: 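HPV18 LCR reporter light per well, converted to plate-wise z-scores that exclude control wells, and averaged over triplicate plates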. Reading the numbers: mean z-score and z-score: higher = stronger reporter signal, weaker E2 silencing. Call rule: 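Mean z ≥ 2 together with z ≥ 2 in two or more of the three replicates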.
The deposit covers about 21,000 reagents; below is an unselected part. Of all reagents, 497 (2.4%) were called active. 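Higher z means weaker E2 silencing; only reporter increases were scored, and knock-downs that hurt cell survival may mask genuine repressor factors.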 The numbers tell different reagents against one gene apart.

Gene | pool no. | mean z-score | z-score, replicate A | z-score, replicate B | z-score, replicate C | call
IL9R (interleukin 9 receptor) | 1 | -0.77 | -0.78 | -0.85 | -0.69 | inactive
NUDT12 (nudix hydrolase 12) | 1 | -0.8 | -0.93 | -0.59 | -0.87 | inactive
LOC105378085 | 1 | -0.48 | -0.54 | -0.39 | -0.5 | inactive
TTC9B (tetratricopeptide repeat domain 9B) | 1 | 1.46 | 1.73 | 1.36 | 1.29 | inactive
TPPP3 (tubulin polymerization promoting protein family member 3) | 1 | -0.76 | -0.63 | -0.54 | -1.1 | inactive
RRAS2 (RAS related 2) | 1 | -0.68 | -0.95 | -0.73 | -0.38 | inactive
LOC400523 (retired record) | 1 | -1.11 | -1.29 | -1 | -1.03 | inactive
DPH5 (diphthamide biosynthesis 5) | 1 | -0.26 | -0.22 | -0.34 | -0.21 | inactive
AAGAB (alpha and gamma adaptin binding protein) | 1 | 0.09 | -0.02 | 0.15 | 0.14 | inactive
FAT4 (FAT atypical cadherin 4) | 1 | 0.78 | 0.88 | 1.13 | 0.34 | inactive
FAT4 (FAT atypical cadherin 4) | 2 | 0.15 | 0.27 | -0.04 | 0.21 | inactive
SEC22A (SEC22 homolog A, vesicle trafficking protein) | 1 | 0.19 | 0 | -0.06 | 0.62 | inactive
SLCO2A1 | 1 | -0.49 | -0.49 | -0.37 | -0.6 | inactive
RTEL1 (regulator of telomere elongation helicase 1) | 1 | 0.01 | 0.2 | -0.2 | 0.02 | inactive
LRFN4 | 1 | 0.36 | 0.38 | 0.52 | 0.2 | inactive
CDR1 (cerebellar degeneration related 1) | 1 | -0.22 | -0.09 | -0.23 | -0.33 | inactive
BTF3P13 (basic transcription factor 3 pseudogene 13) | 1 | 1.41 | 1.33 | 1.36 | 1.53 | inactive
MYO9B (myosin IXB) | 1 | 0.79 | 0.46 | 0.75 | 1.15 | inactive
BCAT1 (branched chain amino acid transaminase 1) | 1 | 0.47 | 0.85 | 0.44 | 0.13 | inactive
R3HCC1L (R3H domain and coiled-coil containing 1 like) | 1 | 0.45 | 0.14 | 0.54 | 0.69 | inactive
SLC35A5 | 1 | 0.51 | 0.07 | 0.71 | 0.76 | inactive
TMEM125 (transmembrane protein 125) | 1 | 1.12 | 1.07 | 1.16 | 1.14 | inactive
TLR2 (toll like receptor 2) | 1 | 0.14 | 0.33 | 0.04 | 0.04 | inactive
PSORS1C1 (psoriasis susceptibility 1 candidate 1) | 1 | 0.41 | 0.04 | 0.46 | 0.74 | inactive
TRPC7 | 1 | 0.27 | 0.16 | 0.47 | 0.17 | inactive
RPL36A (ribosomal protein L36a) | 1 | -0.53 | -0.58 | -0.48 | -0.54 | inactive
UIMC1 (ubiquitin interaction motif containing 1) | 1 | 0.59 | 0.8 | 0.82 | 0.16 | inactive
TNS4 (tensin 4) | 1 | 1.84 | 1.69 | 1.64 | 2.2 | inactive
PTPN1 (protein tyrosine phosphatase non-receptor type 1) | 1 | 0.35 | 0.44 | 0.25 | 0.37 | inactive
ARID4A (AT-rich interaction domain 4A) | 1 | -1.17 | -1.18 | -1.3 | -1.05 | inactive
TTC9 (tetratricopeptide repeat domain 9) | 1 | -0.5 | -0.38 | -0.77 | -0.34 | inactive
ANXA2P1 (annexin A2 pseudogene 1) | 1 | -0.67 | -0.66 | -0.79 | -0.56 | inactive
OR1D4 (olfactory receptor family 1 subfamily D member 4) | 1 | -1.69 | -1.77 | -1.97 | -1.33 | inactive
IL17A (interleukin 17A) | 1 | 0.08 | 0.32 | -0.07 | -0.02 | inactive
AGBL2 (AGBL carboxypeptidase 2) | 1 | -0.41 | -0.49 | -0.28 | -0.48 | inactive
PSMC3 (proteasome 26S subunit, ATPase 3) | 1 | -0.7 | -0.81 | -0.78 | -0.51 | inactive
ZNF160 (zinc finger protein 160) | 1 | -0.77 | -0.75 | -0.55 | -1 | inactive
COLQ | 1 | -0.67 | -0.63 | -0.76 | -0.6 | inactive
MAMDC4 (MAM domain containing 4) | 1 | -0.69 | -1.03 | -0.63 | -0.4 | inactive
ADPRM (ADP-ribose/CDP-alcohol diphosphatase, manganese dependent) | 1 | -0.35 | -0.24 | -0.24 | -0.56 | inactive

Next part (10 carried over from the part before).
Gene | pool no. | mean z-score | z-score, replicate A | z-score, replicate B | z-score, replicate C | call
TTC9 (tetratricopeptide repeat domain 9) | 1 | -0.5 | -0.38 | -0.77 | -0.34 | inactive
ANXA2P1 (annexin A2 pseudogene 1) | 1 | -0.67 | -0.66 | -0.79 | -0.56 | inactive
OR1D4 (olfactory receptor family 1 subfamily D member 4) | 1 | -1.69 | -1.77 | -1.97 | -1.33 | inactive
IL17A (interleukin 17A) | 1 | 0.08 | 0.32 | -0.07 | -0.02 | inactive
AGBL2 (AGBL carboxypeptidase 2) | 1 | -0.41 | -0.49 | -0.28 | -0.48 | inactive
PSMC3 (proteasome 26S subunit, ATPase 3) | 1 | -0.7 | -0.81 | -0.78 | -0.51 | inactive
ZNF160 (zinc finger protein 160) | 1 | -0.77 | -0.75 | -0.55 | -1 | inactive
COLQ | 1 | -0.67 | -0.63 | -0.76 | -0.6 | inactive
MAMDC4 (MAM domain containing 4) | 1 | -0.69 | -1.03 | -0.63 | -0.4 | inactive
ADPRM (ADP-ribose/CDP-alcohol diphosphatase, manganese dependent) | 1 | -0.35 | -0.24 | -0.24 | -0.56 | inactive
KANSL1 (KAT8 regulatory NSL complex subunit 1) | 1 | 1.14 | 1.18 | 1.23 | 1.03 | inactive
NDE1 (nudE neurodevelopment protein 1) | 1 | -1.59 | -1.47 | -1.61 | -1.69 | inactive
OR1B1 (olfactory receptor family 1 subfamily B member 1) | 1 | -0.28 | -0.61 | -0.44 | 0.22 | inactive
LINC00965 (long independently transcribed non-coding RNA 965) | 1 | 0.43 | 0.4 | 0.39 | 0.51 | inactive
INSL4 (insulin like 4) | 1 | 0.89 | 0.81 | 0.81 | 1.03 | inactive
INTS11 (integrator complex subunit 11) | 1 | 0.62 | 0.65 | 0.55 | 0.64 | inactive
TEX10 (testis expressed 10) | 1 | -0.07 | 0.35 | 0.33 | -0.88 | inactive
MAP6D1 (MAP6 domain containing 1) | 1 | -0.15 | -0.59 | -0.25 | 0.39 | inactive
NIT2 (nitrilase family member 2) | 1 | 0.58 | 0.63 | 0.15 | 0.96 | inactive
NMB (neuromedin B) | 1 | 0.05 | -0.42 | 0.34 | 0.24 | inactive
POC5 (POC5 centriolar protein) | 1 | -0.55 | -0.46 | -0.52 | -0.66 | inactive
AURKB (aurora kinase B) | 1 | -0.4 | -0.34 | -0.58 | -0.26 | inactive
NTF3 (neurotrophin 3) | 1 | 1.01 | 0.97 | 1.07 | 1 | inactive
GHSR (growth hormone secretagogue receptor) | 1 | -0.43 | -0.09 | -0.69 | -0.51 | inactive
ASNSD1 (asparagine synthetase domain containing 1) | 1 | -1.4 | -1.48 | -1.43 | -1.29 | inactive
DIPK1B (divergent protein kinase domain 1B) | 1 | -1.07 | -1.22 | -0.62 | -1.37 | inactive
LOC401052 (retired record) | 1 | 0.44 | -0.02 | 0.57 | 0.76 | inactive
B3GNT5 | 1 | 0.71 | 0.22 | 0.62 | 1.27 | inactive
EFS (embryonal Fyn-associated substrate) | 1 | 0.94 | 0.64 | 0.81 | 1.38 | inactive
KIAA0319L (KIAA0319 like) | 1 | -0.35 | -0.19 | -0.28 | -0.59 | inactive
MAGEC1 (MAGE family member C1) | 1 | 1.09 | 0.62 | 1.67 | 0.99 | inactive
SHANK2-AS3 (SHANK2 antisense RNA 3) | 1 | 0.02 | 0.05 | 0 | -0.01 | inactive
TUBA3E (tubulin alpha 3e) | 1 | 0.03 | 0.16 | 0.11 | -0.17 | inactive
ZNF542P (zinc finger protein 542, pseudogene) | 1 | -0.03 | 0.18 | 0 | -0.26 | inactive
CPSF2 (cleavage and polyadenylation specific factor 2) | 1 | 0.87 | 0.65 | 1.34 | 0.63 | inactive
OSBPL11 (oxysterol binding protein like 11) | 1 | -1 | -1.22 | -0.58 | -1.2 | inactive
GABPB2 (GA binding protein transcription factor subunit beta 2) | 1 | -1.41 | -1.42 | -1.35 | -1.46 | inactive
CD8A (CD8 subunit alpha) | 1 | -0.16 | -0.03 | -0.12 | -0.34 | inactive
MT-ND4 (mitochondrially encoded NADH dehydrogenase 4) | 1 | -0.9 | -1.09 | -1.05 | -0.57 | inactive
KLC2 (kinesin light chain 2) | 1 | -1.14 | -1.26 | -1.08 | -1.08 | inactive
SLC10A6 | 1 | -0.13 | -0.34 | 0.18 | -0.23 | inactive
IFT22 (intraflagellar transport 22) | 1 | -0.28 | 0.14 | -0.46 | -0.52 | inactive
HOXA3 (homeobox A3) | 1 | 0.26 | 0.28 | 0.34 | 0.16 | inactive
